What follows are substances tested on O=C(Cc1cccs1)N[C@@H]1C(=O)N2C(C(=O)O)=C(/C=C/c3ccc([N+](=O)[O-])cc3[N+](=O)[O-])CS[C@H]12 (assay: purified protein). Conditions: pH 7.2; 37.0 °C.

Substance	Km
Rv1723 (Mycobacterium tuberculosis H37Rv)	610 ± 150 µM
Rv0309 (Mycobacterium tuberculosis H37Rv)	740 ± 150 µM
Rv2257c (Mycobacterium tuberculosis H37Rv)	1000 ± 200 µM

Reference: doi:10.1101/2025.02.25.640225v1 (biorxiv, 2025)
